Results: paper PMC7846482 (The Journal of Biological Chemistry, 2021)

Biological target: T1, SARS-CoV-2 spike glycoprotein (SARS-CoV-2 Wuhan-Hu-1, UniProt P0DTC2, stabilised, glycosylated)
T1 construct: also called SΔTM; SΔTM-SBP
Assay: western blotting
Settings: both partners purified

B1: mouse anti-SARS-CoV-2 spike monoclonal antibody clone R31 (antibody, V domains shown)
VH: QVQLQQSGAELVRPGTSVKISCKASYTFTNYWLAWVKQRPGHGLEWIGDIYPGGAYTNFNEKFKGKATLTADTSSSTAYMQLSSLTSEDSAVYFCARDGHYGYAMDYWGQGTSVTVSS
VL: DIVMTQAAFSNPVTLGTSASISCRSSKSLLHSNGITYLYWYLQKPGQSPQLLIYQMSDLASGVPDRFSSSGSGTDFTLRISRVEAEDVGVYYCAQNLELPRTFGGGIKLEIK
  binding result: binds
